A negative result means that nothing was seen under these conditions. At least one verdict was read from the data and is not stated in words by the source. For part of these data: Tags and fusion partners may be left off the protein sequences shown.
How the values were obtained:
Test in all cases: ELONA
Details in all cases: 400 nM NP14; commercial protein; label: biotin (ELONA), 5'-FAM (flow cytometry, confocal); folded or branched DNA
[1] = biological target: bovine serum albumin (BSA) (bovine) (UniProt P02769)
[2] = biological target: T1, interleukin-4 (IL-4) (UniProt P05112)
T1 sequence (looked up, limits assumed): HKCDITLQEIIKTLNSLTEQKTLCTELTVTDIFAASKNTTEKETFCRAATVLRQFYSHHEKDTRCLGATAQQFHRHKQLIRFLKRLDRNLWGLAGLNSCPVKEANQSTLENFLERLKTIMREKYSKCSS

Amino acid sequences for entries named in this document (tags omitted). Residues count along the entry.
UniProt P02769, 25-607: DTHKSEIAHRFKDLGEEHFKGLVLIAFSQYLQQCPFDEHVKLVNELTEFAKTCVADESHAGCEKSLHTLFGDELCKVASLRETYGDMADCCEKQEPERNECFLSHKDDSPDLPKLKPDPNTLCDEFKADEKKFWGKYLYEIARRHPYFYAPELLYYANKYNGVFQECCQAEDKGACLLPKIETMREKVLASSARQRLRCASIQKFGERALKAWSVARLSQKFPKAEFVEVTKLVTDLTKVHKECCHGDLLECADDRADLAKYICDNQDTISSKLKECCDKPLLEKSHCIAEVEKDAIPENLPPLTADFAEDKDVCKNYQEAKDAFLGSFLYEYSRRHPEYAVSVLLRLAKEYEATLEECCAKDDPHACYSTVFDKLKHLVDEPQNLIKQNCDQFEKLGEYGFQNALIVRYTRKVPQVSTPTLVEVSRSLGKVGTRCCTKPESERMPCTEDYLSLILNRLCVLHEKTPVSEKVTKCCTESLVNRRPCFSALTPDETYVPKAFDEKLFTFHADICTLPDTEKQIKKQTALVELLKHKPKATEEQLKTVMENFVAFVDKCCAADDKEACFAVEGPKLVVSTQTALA
UniProt P02771, 19-609: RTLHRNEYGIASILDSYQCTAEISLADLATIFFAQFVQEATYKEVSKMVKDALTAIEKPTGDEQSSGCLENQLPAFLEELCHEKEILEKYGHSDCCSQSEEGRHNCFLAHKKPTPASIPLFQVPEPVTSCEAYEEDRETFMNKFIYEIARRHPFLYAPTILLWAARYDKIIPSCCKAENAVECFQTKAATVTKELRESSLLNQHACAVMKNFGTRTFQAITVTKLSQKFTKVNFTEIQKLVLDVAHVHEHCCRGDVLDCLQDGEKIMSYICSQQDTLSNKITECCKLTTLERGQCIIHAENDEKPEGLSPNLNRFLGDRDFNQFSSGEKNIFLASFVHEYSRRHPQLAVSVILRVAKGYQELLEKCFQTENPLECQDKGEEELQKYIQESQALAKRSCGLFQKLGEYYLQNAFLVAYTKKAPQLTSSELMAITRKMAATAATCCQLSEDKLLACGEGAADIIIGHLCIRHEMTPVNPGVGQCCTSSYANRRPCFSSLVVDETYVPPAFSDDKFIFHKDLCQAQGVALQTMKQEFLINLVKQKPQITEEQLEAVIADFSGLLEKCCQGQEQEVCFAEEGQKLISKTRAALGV

[3] = biological target: alpha-fetoprotein (AFP) (UniProt P02771)

Measured: binding result

TTTTTAACACGACTCTCCTGTGGCCAGCGAACTGATTGCCTGTCGTGCCATG [NP14]
no binding: all assays above
